Reference: patent publication US20050271676A1, “Inducing cellular immune responses to human immunodeficiency virus-1 using peptide and nucleic acid compositions” (Epimmune Inc., priority 1993, published 2005)

Amino acid sequences for entries named in this document (tags omitted). A change or cut given only in a name is not applied to a line headed by its entry. Residues count along the entry.
UniProt P04439: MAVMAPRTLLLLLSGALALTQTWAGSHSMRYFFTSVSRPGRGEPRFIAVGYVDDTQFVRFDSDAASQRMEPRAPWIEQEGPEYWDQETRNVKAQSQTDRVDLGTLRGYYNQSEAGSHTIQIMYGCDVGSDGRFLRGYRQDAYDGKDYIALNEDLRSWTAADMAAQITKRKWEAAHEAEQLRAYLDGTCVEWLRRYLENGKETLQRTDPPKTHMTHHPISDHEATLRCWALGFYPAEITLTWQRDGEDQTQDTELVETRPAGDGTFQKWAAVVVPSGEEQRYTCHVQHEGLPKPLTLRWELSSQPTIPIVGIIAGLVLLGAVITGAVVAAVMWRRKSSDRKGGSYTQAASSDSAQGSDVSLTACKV
UniProt Q30154, 30-266: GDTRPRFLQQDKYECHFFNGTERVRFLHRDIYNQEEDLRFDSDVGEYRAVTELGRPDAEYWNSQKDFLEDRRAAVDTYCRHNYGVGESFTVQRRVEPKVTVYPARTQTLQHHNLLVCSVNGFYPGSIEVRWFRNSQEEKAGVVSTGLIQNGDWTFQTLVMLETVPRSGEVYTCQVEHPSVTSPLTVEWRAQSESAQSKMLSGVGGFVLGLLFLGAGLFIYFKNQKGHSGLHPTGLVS

Tests used:
HLA-A*0203 = HLA-A*0203 (Homo sapiens, UniProt P04439, A173T/D140Y/D185E/D98H/E277Q/G131W/G231S/I119V/I121R/I166T/I218V/L180W/L300P/L318F/N151K/N90K/P208A/P217A/Q86G/Q94H/R138H/R169H/T345S); test: purified HLA class I binding assay, A*0203
HLA-A*0201 = HLA-A*0201 (Homo sapiens, UniProt P04439, D140Y/D185E/D98H/E176V/E277Q/G131W/G231S/I119V/I121R/I166T/I218V/L300P/L318F/N151K/N90K/P208A/P217A/Q86G/Q94H/R138H/R169H/T345S); test: purified HLA class I binding assay, A*0201
HLA-DRB1*0701 (DR7) = target: T1, HLA-DRB1*0701 (DR7) (Homo sapiens, UniProt P01903+P01911, A100R/A102G/A103Q/D57E/D86V/E43K/F76Y/K127E/L162R/M171V/P40G/Q125H/Q99D/R33Q/R42Y/R54Q/S133A/S66F/T210M/V115G/Y107V/Y59L/Y89S); test: biochemical; type: binding
T1 construct: endogenous in cells; host or cells: Pitout

HLA-DRB5*0101 (DR2w2β2) = target: T2, HLA-DRB5*0101 (DR2w2β2) (Homo sapiens, UniProt P01903+Q30154); type: binding
T2 construct: expressed in transfected cells

HLA-DRB1*0401 (DR4w4) = target: T3, HLA-DRB1*0401 (DR4w4) (Homo sapiens, UniProt P01903+P01911, A100K/A169T/F76Y/I96L/K127E/L162R/M171V/N62H/P40V/Q125Y/R42H/S133A/S149N/S66Y/V115G/V209L/W38E); test: purified HLA class II binding assay, DRB1*0401 (DR4w4)
T3 construct: endogenous in cells; host or cells: Preiss

HLA-DRB1*0301 (DR3) = target: T4, HLA-DRB1*0301 (DR3) (Homo sapiens, UniProt P01903+P01911, A100K/A102G/A103R/A169T/F55Y/I96L/K41T/L162R/M171V/P40S/Q125H/Q178H/Q39Y/R42S/S66N/T106N/T262R/W38E/Y61H); test: purified HLA class II binding assay, DRB1*0301 (DR3), pH 4.5
T4 construct: endogenous in cells; host or cells: MAT

HLA-DRB1*1201 (DR5w12) = target: T5, HLA-DRB1*1201 (DR5w12) (Homo sapiens, UniProt P01903+P01911, A100R/A169T/D57E/D86V/F55L/H45Y/K41T/L162R/M171V/P40S/Q125H/Q178H/Q39Y/Q99D/R42G/S66L/T262R/V114A/V67L/W38E/Y59H/Y61H/Y89S); test: purified HLA class II binding assay, DRB1*1201 (DR5w12)
T5 construct: endogenous in cells

HLA-DRB1*0802 (DR8w2) = target: T6, HLA-DRB1*0802 (DR8w2) (Homo sapiens, UniProt P01903+P01911, A100R/A103L/A169T/F76Y/H45Y/I96F/K41T/L162R/M171V/P40S/Q125H/Q178H/Q39Y/Q99D/R218S/R42G/S66Y/V115G/W38E); test: biochemical; type: binding
T6 construct: endogenous in cells

HLA-A*3101 = HLA-A*3101 (Homo sapiens, UniProt P04439, A270S/D185E/E176V/E277Q/F33T/G231S/G80R/H175R/I121M/I218V/I322F/K168Q/L300P/L318F/M331R/P217A/Q94H/R138Q/T323A/T345S/T97I/V358M); test: purified HLA class I binding assay, A*3101
HLA-DRB1*1302 (DR6w19) = HLA-DRB1*1302 (DR6w19) (Homo sapiens, UniProt P01903+P01911, A100E/A169T/K41T/L162R/M171V/P40S/Q125H/Q178H/Q39Y/Q99D/R42S/S66N/T262R/V115G/W38E/Y61H); test: purified HLA class II binding assay, DRB1*1302 (DR6w19)
HLA-DRB1*0901 (DR9) = target: T7, HLA-DRB1*0901 (DR9) (Homo sapiens, UniProt P01903+P01911, A100R/A103E/D57H/D86V/F55Y/F60I/F76Y/I96F/K127E/L162R/M171V/P40D/Q125H/Q99R/R33Q/R42F/S133A/S66N/T210M/V115G/W38K/Y107V/Y59G/Y89S); test: biochemical; type: binding
T7 construct: endogenous in cells

## CC(C)C[C@H](NC(=O)[C@@H](N)[C@@H](C)O)C(=O)N[C@@H](Cc1c[nH]c2ccccc12)C(=O)N[C@@H](CCC(N)=O)C(=O)N[C@@H](CCCNC(=N)N)C(=O)N1CCC[C@H]1C(=O)N[C@@H](CC(C)C)C(=O)N[C@H](C(=O)N[C@H](C(=O)O)[C@@H](C)O)C(C)C [25.0046]
HLA-A*0203
  IC50: 2500 nM
HLA-A*0201
  IC50: 270 nM

## ASDFNLPPVVAKEIY
HLA-DRB1*0701 (DR7)
  DR7 binding: 0.0840
HLA-DRB5*0101 (DR2w2β2)
  DR2w2β2 binding: −0.0021
HLA-DRB1*0401 (DR4w4); HIV DR super motif peptides, unit not given
  DR4w4 binding: −0.0028

## CC(C)[C@H](NC(=O)[C@H](Cc1ccc(O)cc1)NC(=O)[C@H](Cc1ccccc1)NC(=O)[C@@H](NC(=O)[C@H](CCC(=O)O)NC(=O)[C@H](C)N)[C@@H](C)O)C(=O)N[C@@H](CC(=O)O)C(=O)NCC(=O)N[C@@H](C)C(=O)N[C@@H](C)C(=O)N[C@@H](CC(N)=O)C(=O)N[C@@H](CCCNC(=N)N)C(=O)N[C@@H](CCC(=O)O)C(=O)N[C@H](C(=O)N[C@@H](CCCCN)C(=O)O)[C@@H](C)O [Peptide 35.0125]
HLA-DRB1*0301 (DR3)
  IC50: 0.769 µM

## CC[C@H](C)[C@H](NC(=O)CNC(=O)[C@H](Cc1c[nH]c2ccccc12)NC(=O)[C@@H](NC(=O)[C@@H](NC(=O)[C@H](CC(C)C)NC(=O)[C@H](CCC(N)=O)NC(=O)[C@H](CC(C)C)NC(=O)[C@H](CC(C)C)NC(=O)[C@H](Cc1c[nH]cn1)NC(=O)[C@@H](N)CCC(N)=O)[C@@H](C)O)C(C)C)C(=O)N[C@@H](CCCCN)C(=O)N[C@@H](CCC(N)=O)C(=O)N[C@@H](CC(C)C)C(=O)N[C@@H](CCC(N)=O)C(=O)O [Peptide 27.0297]
HLA-DRB1*0401 (DR4w4)
  IC50: 1320 nM

## CC[C@H](C)[C@H](NC(=O)[C@H](Cc1ccccc1)NC(=O)[C@@H](NC(=O)[C@H](C)NC(=O)[C@H](CCSC)NC(=O)[C@H](CCC(N)=O)NC(=O)[C@@H](NC(=O)[C@H](C)NC(=O)[C@@H](NC(=O)[C@@H](N)CCCCN)[C@@H](C)O)C(C)C)C(C)C)C(=O)N[C@@H](Cc1c[nH]cn1)C(=O)N[C@@H](CC(N)=O)C(=O)N[C@@H](Cc1ccccc1)C(=O)N[C@@H](CCCCN)C(=O)N[C@@H](CCCNC(=N)N)C(=O)O [Peptide 27.0373]
HLA-DRB1*1201 (DR5w12)
  IC50: 18.6 µM
HLA-DRB1*0802 (DR8w2)
  IC50: 1.44 µM

## CC[C@H](C)[C@H](NC(=O)[C@H](C)NC(=O)[C@H](CCC(N)=O)NC(=O)[C@H](Cc1c[nH]cn1)NC(=O)[C@@H](NC(=O)[C@H](CCSC)NC(=O)[C@H](CCC(N)=O)NC(=O)CNC(=O)[C@@H](N)CCC(N)=O)C(C)C)C(=O)N[C@@H](CO)C(=O)N1CCC[C@H]1C(=O)N[C@@H](CCCNC(=N)N)C(=O)N[C@H](C(=O)N[C@@H](CC(C)C)C(=O)N[C@@H](CC(N)=O)C(=O)O)[C@@H](C)O [Peptide 27.0304]
HLA-DRB1*0802 (DR8w2)
  IC50: 7.31 µM

## CC(C)C[C@H](NC(=O)[C@H](CCCCN)NC(=O)[C@@H](NC(=O)[C@H](CC(C)C)NC(=O)[C@@H]1CCCN1C(=O)[C@@H]1CCCN1C(=O)[C@@H](NC(=O)[C@H](CC(N)=O)NC(=O)[C@@H](NC(=O)[C@H](Cc1ccccc1)NC(=O)[C@H](CCC(=O)O)NC(=O)[C@@H](N)Cc1c[nH]c2ccccc12)C(C)C)[C@@H](C)O)C(C)C)C(=O)N[C@@H](Cc1c[nH]c2ccccc12)C(=O)N[C@@H](Cc1ccc(O)cc1)C(=O)N[C@@H](CCC(N)=O)C(=O)O [Peptide 27.0354]
HLA-DRB1*0301 (DR3)
  IC50: 13.6 µM

## CC[C@H](C)[C@H](NC(=O)[C@H](CCCCN)NC(=O)[C@@H](NC(=O)[C@@H](NC(=O)[C@@H](N)C(C)C)[C@@H](C)O)[C@@H](C)CC)C(=O)NCC(=O)NCC(=O)N[C@@H](CCC(N)=O)C(=O)N[C@@H](CC(C)C)C(=O)N[C@@H](CCCCN)C(=O)O [1273.09]
HLA-A*3101
  IC50: 10.6 µM

## CC[C@H](C)[C@H](NC(=O)[C@H](CO)NC(=O)[C@@H]1CCCN1C(=O)[C@@H](NC(=O)[C@@H](NC(=O)[C@H](Cc1ccccc1)NC(=O)[C@H](C)NC(=O)[C@@H](NC(=O)[C@H](Cc1ccc(O)cc1)NC(=O)[C@H](CCCCN)NC(=O)[C@H](CCCNC(=N)N)NC(=O)[C@@H](N)Cc1ccccc1)[C@@H](C)O)[C@@H](C)O)[C@@H](C)CC)C(=O)N[C@@H](CC(N)=O)C(=O)N[C@@H](CC(N)=O)C(=O)N[C@@H](CCC(=O)O)C(=O)O [Peptide 27.0341]
HLA-DRB1*1201 (DR5w12)
  IC50: > 20 µM
HLA-DRB1*0701 (DR7)
  IC50: 30 nM
HLA-DRB1*1302 (DR6w19)
  IC50: > 20 µM
HLA-DRB1*0401 (DR4w4)
  IC50: 294 nM
HLA-DRB1*0301 (DR3)
  IC50: > 20 µM
HLA-DRB1*0901 (DR9)
  IC50: 39 nM
